Potato spindle tuber viroid, loop 15: variant abundance in plants

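Three N. benthamiana plants were inoculated with the whole mutant pool. Samples came from the inoculated region at 5 days, the leaf margin at 10 and upper systemic leaves at 12.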

PSTVd intermediate strain, loop 15: wild type GGAAACCGCUACUAC, pool pattern GGAAACCGNNNNNNC; upper and lower strand joined, each 5' to 3', the first 7 letters being the upper strand, closing pairs included.

Numbers give reads per thousand; 0 = not seen among the reads, higher = more abundant. Each site shows the three plants. "Pool" is the share in the plasmid pool used as inoculum, on the same scale. The inoculated region was read from the minus strand, the other sites from the plus strand. IR is the inoculated region, LM the leaf margin, Sys the systemic leaves.

For GGAAACCGUCCCUAC (pool 0.224) the result was IR 0.360 / 0.337 / 0.400; LM 0.113 / 0.0445 / 0.100; Sys 0.0322 / 0.0756 / 0.0456. For GGAAACCGAGGGUGC (pool 0.112) the result was IR 0.0819 / 0.0964 / 0.0952; LM 0.0485 / 0.0223 / 0; Sys 0 / 0 / 0. For GGAAACCGAUAAGCC (pool 0.192) the result was IR 0.0819 / 0.0643 / 0.114; LM 0 / 0.0223 / 0.0200; Sys 0 / 0 / 0. GGAAACCGCAGGCAC (pool 0.256) gave IR 0.0819 / 0.0643 / 0.171; LM 0.0162 / 0 / 0.0401; Sys 0.0161 / 0 / 0. For GGAAACCGGUCCUCC (pool 0.272) the result was IR 0.115 / 0.0964 / 0.114; LM 0.0162 / 0 / 0; Sys 0.0322 / 0 / 0. For GGAAACCGGUCCUGC (pool 0.352) the result was IR 0.0983 / 0.0964 / 0.0952; LM 0 / 0.0223 / 0.0200; Sys 0 / 0 / 0. With GGAAACCGUAAAUAC (pool 0.320) the assay gave IR 0.197 / 0.386 / 0.362; LM 0.210 / 0.0891 / 0.100; Sys 0.0322 / 0.0605 / 0.0684.

GGAAACCGCUCAGGC (pool 0.352) gave IR 0.0819 / 0.0964 / 0.190; LM 0.0162 / 0 / 0; Sys 0 / 0 / 0. For GGAAACCGGACGAUC (pool 0.144) the result was IR 0.0983 / 0.145 / 0.114; LM 0.0162 / 0 / 0; Sys 0 / 0 / 0. With GGAAACCGACAAAAC (pool 0.272) the assay gave IR 0.328 / 0.305 / 0.400; LM 0.0647 / 0.0223 / 0.120; Sys 0.0322 / 0 / 0. With GGAAACCGCCUAAUC (pool 0.240) the assay gave IR 0.0655 / 0.0643 / 0.114; LM 0 / 0 / 0.0200; Sys 0 / 0 / 0. With GGAAACCGGUCUAAC (pool 0.192) the assay gave IR 0.180 / 0.0803 / 0.152; LM 0 / 0 / 0.0200; Sys 0.0161 / 0 / 0. GGAAACCGUCCGUGC (pool 0.192) read IR 0.328 / 0.353 / 0.343; LM 0.113 / 0.0668 / 0.100; Sys 0 / 0.0454 / 0.114. GGAAACCGGUGUGUC (pool 0.176) gave IR 0.0164 / 0.0803 / 0.0381; LM 0.0162 / 0.0223 / 0; Sys 0 / 0 / 0.

GGAAACCGUGUUCAC (pool 0.208) read IR 0.131 / 0.0803 / 0.0952; LM 0 / 0 / 0; Sys 0.0161 / 0 / 0. GGAAACCGCCCGCAC (pool 0.160) read IR 0.115 / 0.0964 / 0.114; LM 0.0162 / 0 / 0; Sys 0 / 0 / 0. GGAAACCGCCGACGC (pool 0.208) gave IR 0.0983 / 0.0643 / 0.0571; LM 0 / 0.0223 / 0; Sys 0 / 0 / 0. With GGAAACCGUCUCGGC (pool 0.288) the assay gave IR 0.164 / 0.112 / 0.0952; LM 0.0647 / 0.0223 / 0; Sys 0.0161 / 0 / 0. GGAAACCGGUCGCUC (pool 0.0960) gave IR 0.131 / 0.0643 / 0.114; LM 0.0162 / 0 / 0; Sys 0 / 0 / 0. GGAAACCGAGUGCAC (pool 0.160) read IR 0.115 / 0.0803 / 0.0952; LM 0.0162 / 0.0445 / 0.0401; Sys 0 / 0 / 0. GGAAACCGUACCUGC (pool 0.208) gave IR 0.0655 / 0.0643 / 0.114; LM 0.0162 / 0 / 0.0200; Sys 0 / 0 / 0.

GGAAACCGAAUGGAC (pool 0.288) read IR 0.0983 / 0.0964 / 0.0762; LM 0 / 0 / 0; Sys 0.0161 / 0 / 0. GGAAACCGGGACCUC (pool 0.192) gave IR 0.0819 / 0.0964 / 0.0571; LM 0 / 0 / 0.0200; Sys 0 / 0 / 0.

Sequences that differ at fixed positions probably stem from PCR or sequencing errors, and defective variants can be carried along by functional ones. With 43,870-66,106 reads a sample, very low values are single reads. For reference, wild type rose from 33.9 per thousand in the pool to 202, 200, 159 (inoculated region), 724, 746, 710 (leaf margin) and 856, 883, 880 (systemic leaves).

From the data files of Wu et al. 2024, doi:10.1371/journal.ppat.1012142.